Results of unrelated studies side by side (data: NIAID ChemDB).

Shared fields: tests in culture

Two numbers with a dash give a range or band. An empty or dashed field is not shown. Zone: diameter of growth inhibition. Inhibition is in % at the dose shown (toxicity tests: loss of growth or viability). ECn: concentration that inhibits the pathogen or its effect by n%. Conditions beyond the fields shown may differ between rows. MIC50, MIC90 and the like: level of inhibition, or share of isolates inhibited.

| structure | species | strain | read by | conditions | endpoint | dose | value |
|---|---|---|---|---|---|---|---|
| Cc1ccn2c(C(=O)NCc3ccc(N4CCN(c5ccc(C(F)(F)F)cc5)CC4)c(F)c3)c(C)nc2c1 | Mycobacterium intracellulare | ATCC 13950 | resazurin | - | MIC | - | 0.03125 µg/mL |
| FS(F)(F)(F)(F)c1ccc(CNc2ncnc3ccoc23)cc1 | Mycobacterium bovis BCG | - | luminescence | - | MIC50 | - | >20 µM |
| CC(C)(C)c1ccc(NC(=O)NNC(=O)c2ccncc2)cc1 | Mycobacterium kansasii | My 6509/96 | broth dilution | 21 d | MIC100 | - | 62.5 µM |
| CCc1nc2ccc(Cl)cn2c1C(=O)NCc1ccc(N2CCSCC2)c(F)c1 | Mycobacterium intracellulare | - | resazurin | - | MIC | - | <2 µM |
| OB1OC(N2CCN(C3OB(O)c4ccccc43)CC2)c2ccccc21 | Mycobacterium luteum | - | turbidity | - | MIC | - | <0.9 µg/mL |
| CC[C@H]1OC(=O)[C@H](C)[C@@H](O[C@H]2C[C@@](C)(OC)[C@@H](O)[C@H](C)O2)[C@H](C)[C@@H](O[C@@H]2O[C@H](C)C[C@H](N(C)C)[C@H]2O)[C@](C)(O)C[C@@H](C)CN(C)[C@H](C)[C@@H](O)[C@]1(C)O | Mycobacterium abscessus | Clinical isolate MR27419N | broth dilution / visual reading | - | MIC100 | - | 1 µg/mL |
| CC(C)c1ccc(NC(=O)NNC(=O)c2ccncc2)cc1 | Mycobacterium kansasii | My 6509/96 | broth dilution | 7 d | MIC100 | - | 8 µM |
| COc1c(N2CC[C@@H](CN)C2)c(F)cc2c(=O)[nH]c(=O)n(C3CC3)c12 | Mycobacterium smegmatis | G89C mutant | - | - | MIC99 | - | 25 µg/mL |
| Fc1ccc(N2CCN(c3ccc(Nc4ncnc5cc(F)ccc45)cc3)CC2)cc1 | Mycobacterium bovis BCG | - | luminescence | - | MIC50 | - | >10 µM |
| Cc1nc2ccc(Br)cn2c1C(=O)NCc1ccc(N2CCOCC2)cc1 | Mycobacterium ulcerans | - | fluorescence | - | MIC50 | - | 0.01–0.1 µg/mL |
| FC(F)(F)Oc1ccc(CCNc2ncnc3sccc23)cc1 | Mycobacterium bovis BCG | - | luminescence | - | MIC50 | - | >20 µM |
| Cc1nn(Cc2cn(CCCCCCn3cc(Cn4nc(C)n(/N=C/c5cccs5)c4=O)nn3)nn2)c(=O)n1/N=C/c1cccs1 | Mycobacterium luteus | - | agar diffusion | - | zone | 20 mg/mL | 0.6 mm |
| Fc1cc(N2CCN(c3ccc(C(F)(F)F)cn3)CC2)ccc1CNc1ncnc2ccccc12 | Mycobacterium bovis BCG | - | luminescence | - | MIC50 | - | >20 µM |
| OB1OC(N2CCOCC2)c2ccccc21 | Mycobacterium luteum | - | turbidity | - | MIC | - | 15.6 µg/mL |
| Cc1nc(Nc2ccc(Oc3ccc(C(F)(F)F)cc3)cc2)c2ccc(F)cc2n1 | Mycobacterium bovis BCG | - | luminescence | - | MIC50 | - | >20 µM |
| CCC1CN(c2c(F)cc3c(=O)c(C(=O)O)cn(C4CC4)c3c2OC)CCN1 | Mycobacterium smegmatis | WT | - | - | MIC99 | - | 0.031 µg/mL |
| CC(C)N=C(N)/N=C(\N)NOCCCOc1cc(Cl)c(Cl)cc1Cl | Mycobacterium avium complex | 3010 | - | - | MIC | - | 32 µg/mL |
| Fc1ccc2c(Nc3ccc(N4CCCCC4)cc3)ncnc2c1 | Mycobacterium bovis BCG | - | luminescence | - | MIC50 | - | >50 µM |
| Cc1ccc2nc(C)c(C(=O)NCc3ccc(C(F)(F)F)cc3)n2c1 | Mycobacterium intracellulare | - | resazurin | - | MIC | - | <2 µM |
| O=S(=O)(c1ccc(OC(F)(F)F)cc1)C1CCN(c2ccc(Nc3ncnc4ccccc34)cc2)CC1 | Mycobacterium bovis BCG | - | luminescence | - | MIC50 | - | >50 µM |
| CCCC(CCC)NCCNC(CCC)CCC | Mycobacterium smegmatis | ATCC 607 | - | - | EC50 | - | <60 µg/mL |
| Cc1cn2c(C(=O)NCc3ccc(N4CCN(c5ccc(C(F)(F)F)cn5)CC4)c(F)c3)c(C)nc2s1 | Mycobacterium intracellulare | ATCC 13950 | resazurin | - | MIC | - | 0.125 µg/mL |
| OB(O)c1ccccc1 | Mycobacterium luteum | - | turbidity | - | MBC | - | 500 µg/mL |
| CCCCCNCCNCCCCC | Mycobacterium smegmatis | ATCC 607 | - | - | EC50 | - | <250 µg/mL |
| C[C@@H]1CN(c2c(F)c(N)c3c(=O)c(C(=O)O)cn(C4CC4)c3c2F)C[C@H](C)N1 | Mycobacterium avium complex | N-962 (HIV+) | - | - | MIC | - | 1 µg/mL |
| Fc1ccc2c(Nc3ccc(N4CCN(c5ccc(C(F)(F)F)cc5)CC4)c(F)c3)ncnc2c1 | Mycobacterium bovis BCG | - | luminescence | - | MIC50 | - | >50 µM |
| CC[C@H]1OC(=O)[C@H](C)[C@@H](O[C@H]2C[C@@](C)(OC)[C@@H](O)[C@H](C)O2)[C@H](C)[C@@H](O[C@@H]2O[C@H](C)C[C@H](N(C)C)[C@H]2O)[C@](C)(O)C[C@@H](C)CN(C)[C@H](C)[C@@H](O)[C@]1(C)O | Mycobacterium intracellulare | ATCC 13950 | resazurin | - | MIC | - | 5 µg/mL |
| Cc1noc(NS(=O)(=O)c2ccc(N)cc2)c1C | Mycobacterium luteus | - | agar diffusion | - | zone | 300 µg/mL | 1 mm |
| CC(=O)c1ccc(B(O)O)cc1 | Mycobacterium luteum | - | turbidity | - | MBC | - | 31.2 µg/mL |
| CN(C)c1ccc(CNc2ncnc3ccccc23)cc1 | Mycobacterium bovis BCG | - | luminescence | - | MIC50 | - | >20 µM |
| CO[C@H]1/C=C/O[C@@]2(C)Oc3c(C)c(O)c4c(=O)c(c5oc6cc(N7CCN(CC(C)C)CC7)cc(=O)c6nc5c4c3=C2O)NC(=O)/C(C)=C\C=C\[C@H](C)[C@H](O)[C@@H](C)[C@@H](O)[C@@H](C)[C@H](OC(C)=O)[C@@H]1C | Mycobacterium avium complex | N-259 (HIV-) | - | - | MIC | - | 0.0313 µg/mL |
| O=C(NNC(=O)c1ccncc1)Nc1ccc(Br)c(C(F)(F)F)c1 | Mycobacterium kansasii | My 6509/96 | broth dilution | 14 d | MIC100 | - | 125 µM |
| CC(C)NC(C)C(C)NC(C)C | Mycobacterium smegmatis | ATCC 607 | - | - | inhibition | 1000 µg/mL | 0% |
| CO[C@H]1/C=C/O[C@@]2(C)Oc3c(C)c(O)c4c(O)c(c5c(c4c3C2=O)NC2(CCN(CC(C)C)CC2)N=5)=NC(=O)/C(C)=C\C=C\[C@H](C)[C@H](O)[C@@H](C)[C@@H](O)[C@@H](C)[C@H](OC(C)=O)[C@@H]1C | Mycobacterium avium intracellulare | 953 | - | - | MIC | - | 1 µg/mL |
| Fc1cccc2c(Nc3ccc(Oc4ccc(C(F)(F)F)cc4)cc3)ncnc12 | Mycobacterium bovis BCG | - | luminescence | - | MIC50 | - | >50 µM |
| Cc1ccn2c(C(=O)NCc3ccc(N4CCC(c5ccc(OC(F)(F)F)cc5)CC4)cc3)c(C)nc2c1 | Mycobacterium intracellulare | - | resazurin | - | MIC | - | <2 µM |
| O=C(NCc1ccc(F)cc1)c1c(Cl)nc2ccccn12 | Mycobacterium ulcerans | - | fluorescence | - | MIC50 | - | 0.1–1 µg/mL |
| CC(C)(C)NCCCNC(C)(C)C | Mycobacterium smegmatis | ATCC 607 | - | - | inhibition | 1000 µg/mL | 0% |
| COc1ccc(NC(=O)NNC(=O)c2ccncc2)cc1 | Mycobacterium kansasii | My 235/80 | broth dilution | 14 d | MIC100 | - | >125 µM |
| CO[C@H]1/C=C/O[C@@]2(C)Oc3c(C)c(O)c4c(O)c(c5c(c4c3C2=O)NC2(CCN(CC(C)C)CC2)N=5)=NC(=O)/C(C)=C\C=C\[C@H](C)[C@H](O)[C@@H](C)[C@@H](O)[C@@H](C)[C@H](OC(C)=O)[C@@H]1C | Mycobacterium avium complex | N-251 (HIV-) | - | - | MIC | - | 0.8 µg/mL |
| O=C(c1ccc(CNc2ncnc3ccccc23)cc1)N1CCOCC1 | Mycobacterium bovis BCG | - | luminescence | - | MIC50 | - | >50 µM |
| O=C(NNC(=O)c1ccncc1)Nc1ccc(Br)c(F)c1 | Mycobacterium kansasii | My 235/80 | broth dilution | 14 d | MIC100 | - | >125 µM |
| COc1ccc(/C=N/n2c(C)nn(Cc3cn(CCn4cc(Cn5nc(C)n(/N=C/c6ccc(OC)cc6)c5=O)nn4)nn3)c2=O)cc1 | Mycobacterium luteus | - | agar diffusion | - | zone | 20 mg/mL | 1.21 mm |
| CCCCCCCNC(=O)NNC(=O)c1ccncc1 | Mycobacterium kansasii | My 6509/96 | broth dilution | 7 d | MIC100 | - | 32 µM |
| COc1ccc(CCNc2ncnc3ccsc23)cc1 | Mycobacterium bovis BCG | - | luminescence | - | MIC50 | - | >50 µM |
| COc1ccc(CCn2c(C)nn(Cc3cn(CCn4cc(Cn5nc(C)n(CCc6ccc(OC)cc6)c5=O)nn4)nn3)c2=O)cc1 | Mycobacterium luteus | - | agar diffusion | - | zone | 20 mg/mL | 1.387 mm |
| CCc1nc2ccc(Cl)cn2c1C(=O)NCc1ccc(N2CCC(c3ccc(OC(F)(F)F)cc3)CC2)cc1 | Mycobacterium intracellulare | - | resazurin | - | MIC | - | <2 µM |
| CC(C)NCCCCNC(C)C | Mycobacterium smegmatis | ATCC 607 | - | - | EC50 | - | >1000 µg/mL |
| CCC1CN(c2cc3c(cc2F)c(=O)c(C(=O)O)cn3C2CC2)CCN1 | Mycobacterium smegmatis | D95Y mutant | - | - | MIC99 | - | 2 µg/mL |
| O=C(NCc1ccc(N2CCCCC2)cc1)c1c(Cl)nc2ccccn12 | Mycobacterium ulcerans | - | fluorescence | - | MIC50 | - | 0.01–0.1 µg/mL |
| COc1c(N2CC[C@H](N)C2)c(F)cc2c(=O)n(N)c(=O)n(C3CC3)c12 | Mycobacterium smegmatis | A91V mutant | - | - | MIC99 | - | 25 µg/mL |
| CCCCNCCNCCCC | Mycobacterium smegmatis | ATCC 607 | - | - | EC50 | - | >250 µg/mL |
| FC(F)(F)c1ccc(Oc2ccc(Nc3nc(C4CC4)nc4ccccc34)cc2)cc1 | Mycobacterium bovis BCG | - | luminescence | - | MIC50 | - | >20 µM |
| Cc1ccn2c(C(=O)NCc3ccc(N4CCN(c5ccc(C(F)(F)F)cn5)CC4)c(F)c3)c(C)nc2c1 | Mycobacterium intracellulare | - | resazurin | - | MIC | - | <2 µM |
| Fc1ccc(Oc2cccc(CNc3ncnc4ccccc34)c2)cc1 | Mycobacterium bovis BCG | - | luminescence | - | MIC50 | - | >50 µM |
| COc1c(N2CC[C@H](N)C2)c(F)cc2c(=O)[nH]c(=O)n(C3CC3)c12 | Mycobacterium smegmatis | WT | - | - | MIC99 | - | 50 µg/mL |
| CCCCCCc1ccc(NC(=O)NNC(=O)c2ccncc2)cc1 | Mycobacterium kansasii | My 6509/96 | broth dilution | 14 d | MIC100 | - | 125 µM |
| COc1ccc(C(=O)OCCNC(=O)c2c(Cl)nc3ccccn23)cc1 | Mycobacterium ulcerans | - | fluorescence | - | MIC50 | - | >10 µg/mL |
| Fc1ccc2c(Nc3ccc(Oc4ccc(Cl)c(Cl)c4)cc3)ncnc2c1 | Mycobacterium bovis BCG | - | luminescence | - | MIC50 | - | >20 µM |
| O=C(NNC(=O)c1ccncc1)Nc1c(Cl)cc(Cl)cc1Cl | Mycobacterium kansasii | My 235/80 | broth dilution | 21 d | MIC100 | - | >125 µM |